Numbering of substitutions follows the chain as printed. The list shows a part of the results. Env chains of viruses from a treatment-interruption trial, translated from the printed DNA. IC50 / IC80 of two broadly neutralizing antibodies; lower = more sensitive virus; >50 µg/ml means not reached and <0.001 µg/ml is below the lowest dose. No active / inactive call.
Experiments:
antibody 10-1074 [1] = test: neutralization IC50; higher = virus less sensitive to the antibody
Procedure: (§1)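 Pseudovirus bearing the Env chain mixed with antibody, from 50 µg/ml in fivefold dilutions, on TZM-bl reporter cells, in duplicate.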

antibody 3BNC117 [2] = test: as above
Procedure: as §1

antibody 10-1074 [3] = test: neutralization IC80; higher = virus less sensitive to the antibody
Procedure: as §1

antibody 3BNC117 [4] = test: as above
Procedure: as §1

B1: HIV-1 Env, rebound clone, placebo arm (protein)
chain: MRAKGTRKNCQHLWKWGTMLLGMLMICSAAGNLWVTVYYGVPVWKAANTTLFCASDAKAYDTEVHNVWATHACVPTDPNPQEVPLENVTENFNMWKNNMAEQMHEDIISLWDQSLKPCVKLTPLCVTLNCTDYTKNATNQNNTSGNETVGKEIEMKNCSFNITTDMRDKFQKEYALFYKDDIVSIDNNVSYRLISCNTSVLTQACPKISFEPIPIHYCAPAGFAILKCNDKKFNGTGPCKNVSTVQCTHGIRPVVSTQLLLNGSLAEGGIVIRSENITNNAKTIIVQLNETVEINCTRPNNNTRKSIHIGPGRAFYATGDIIGDIRQAHCNISGTKWNNTLKKIVGQLRAQFGTQFKNKTITFNHSSGGDPEIVMHMFNCGGEFFYCNTTQLFNSTWPANGSMAENSTNNGTITLPCRIKQIVNMWQEVGKAMYAPPIKGQIKCTSNITGLILTRDGGTETNTTTEIFRPGGGNMMDNWRSELYKYKVVKIEPLGVAPTKAKRRVVQREKRAVTFGALFLGFLGAAGSTMGAASMTLTVQARLLLSGIVQQQNNLLRAIEAQQHMLQLTVWGIKQLQARVLAVERYLKDQQLLGIWGCSGKLICTTAVPWNASWSNKTQDEIWGNMTWMQWEKEISNYTGLIYNLIEKSQTQQEQNEQELLALDQWASLWNWFDISKWLWYIKIFIMIVGGLIGLRIVFTVLNIVNRVRQGYSPLSFQTLLPNPRGPDRPGGIEEEGGERDRDSSSRLADGFLAIFWVDLRSLFLFSYHHLRDLLLIAARIVELLGRRGWELLKYWWNLLRYWSQELKNSAISLLNATAIAVAEGTDRVIEVLQRIWRGILHIPTRIRQGLERLLL
**Q.** For B1, which “neutralization IC50” value (antibody 10-1074 [1]) is on record?
**A.** The value was 0.005 µg/mL.

**Q.** And the “neutralization IC50” value (antibody 3BNC117 [2])?
**A.** The value was 0.013 µg/mL.

**Q.** What about the “neutralization IC80” value (antibody 10-1074 [3]) of the same binder?
**A.** The value was 0.026 µg/mL.

**Q.** And the “neutralization IC80” value (antibody 3BNC117 [4])?
**A.** The value was 0.039 µg/mL.

B2: HIV-1 Env, rebound clone, placebo arm (protein)
chain: B1 chain with G751R
**Q.** How did the “neutralization IC50” value (antibody 10-1074 [1]) turn out when B2 was run?
**A.** The value was 0.004 µg/mL.

**Q.** What about the “neutralization IC50” value (antibody 3BNC117 [2]) of the same binder?
**A.** Its value is 0.01 µg/mL.

**Q.** What about the “neutralization IC80” value (antibody 10-1074 [3]) of the same binder?
**A.** Its value is 0.021 µg/mL.

**Q.** What about the “neutralization IC80” value (antibody 3BNC117 [4]) of the same binder?
**A.** Its value is 0.029 µg/mL.

B3: HIV-1 Env, rebound clone, placebo arm (protein)
chain: MRVMGMLRNWQHLEKWGLLFLGLLIICSAKDNLWVTVYYGVPVWKEATTTLFCASDAKGYDKEAHNVWATHACVPTDPNPQEIWLKNVTENFNIWRNDMVEQMHTDIISLWDESLKPCVKITPLCVTLNCTNAKFNSTSANSTQEEPGAVQNCTFNTTTELRDKKQKVYALFYRLDLIPLKENNASNNASNEYILINCNTSIIKQACPKVSWDPIPIHYCAPAGYAILKCRDKKFNGTGPCKNVSTVQCTHGVKPVVSTQLLLNGSLAEEDIVIRSENISDNAKTIIVSLNEPVQINCTRPGNNTRKGIHLGPGQTFYARGDIIGDIRKAHCKINKSQWNKTLAQVSTKLKSLLNITGVVFKPPVGGDLEVTMHSFNCRGEFFYCNTSGLFNFSYSVPTNETITINETITIPCKIKQIINMWQGVGQAMYAPPIAGNITCNSNITGILLIRDGGPNSTNNDTFRPGGGDMRDNWRSELYKYKVVEIEPLGVAPTRARRQVVRRERRAVGIGAVFLGFLGAAGSTMGAASITLTVQARQLLSGIVQQQRNLLQAIEAQQHLLKLTVWGIKQLQARVLAVERYLKDQQLLGIWGCSGKLICTTSVPWNSSWSNRSLDEIWNNMTWIDWEREISNYSQEIYKLIEQSQNQQEKNEQELLALDKWASLWSWFDITNWLWYIKIFIMIVGGLIGLRIVFAVLAIVNRVRKGYSPLSLQTLIPSPRGPDRPDGIEEGGGEQGRDRSVRLVTGFLALVWDDLRNLCLFSYRHLRDFILIAARVVDRGLRRGWEQCLKYLWNLTKYWSQELKNSATSLFNSTAIVVAEGTDRIIEALQAVIRAVLHIPRRIRQGFERALL
**Q.** How did the “neutralization IC50” value (antibody 10-1074 [1]) turn out when B3 was run?
**A.** Its value is > 50 µg/mL.

**Q.** And the “neutralization IC50” value (antibody 3BNC117 [2])?
**A.** The value was 0.984 µg/mL.

**Q.** What about the “neutralization IC80” value (antibody 10-1074 [3]) of the same binder?
**A.** Its value is > 50 µg/mL.

**Q.** What about the “neutralization IC80” value (antibody 3BNC117 [4]) of the same binder?
**A.** The value was 25.2 µg/mL.

— the supplement of paper PMC12637763
